Test results: patent US7902327B2, “Dendrimeric peptides, pharmaceutical compositions and methods of using the same” (New York University School of Medicine, priority 2007, dated 2011)
Where a SMILES comes first, the peptide text is derived from it. Side-chain parts run from the residue outwards. [ ]: non-standard residue; d: D form. The star is where a group is joined. Lys(α,ε-(ArgTrp)2) = N=C(N)NCCC[C@H](N)C(=O)N[C@@H](Cc1c[nH]c2ccccc12)C(=O)NCCCC[C@H](NC(=O)[C@H](Cc1c[nH]c2ccccc12)NC(=O)[C@@H](N)CCCNC(=N)N)C(=O)*; βAla = NCCC(=O)O

System: B. anthracis (32F2 Sterne)
Details: hemolytic index HD50/MIC50

| SMILES | HI B. anthracis |
| --- | --- |
| CC[C@H](C)[C@H](N)C(=O)N[C@@H](CC(C)C)C(=O)N1CCC[C@H]1C(=O)N[C@@H](Cc1c[nH]c2ccccc12)C(=O)N[C@@H](CCCCN)C(=O)N[C@@H](Cc1c[nH]c2ccccc12)C(=O)N1CCC[C@H]1C(=O)N[C@@H](Cc1c[nH]c2ccccc12)C(=O)N[C@@H](Cc1c[nH]c2ccccc12)C(=O)N1CCC[C@H]1C(=O)N[C@@H](Cc1c[nH]c2ccccc12)C(=O)N[C@@H](CCCNC(=N)N)C(=O)N[C@@H](CCCNC(=N)N)C(N)=O [Indolicidin, reference compound] | 35.7 |
| N=C(N)NCCC[C@H](N)C(=O)N[C@@H](Cc1c[nH]c2ccccc12)C(=O)NCCCC[C@H](NC(=O)[C@H](Cc1c[nH]c2ccccc12)NC(=O)[C@@H](N)CCCNC(=N)N)C(=O)NCCCC[C@H](NC(=O)[C@H](CCCCNC(=O)[C@H](Cc1c[nH]c2ccccc12)NC(=O)[C@@H](N)CCCNC(=N)N)NC(=O)[C@H](Cc1c[nH]c2ccccc12)NC(=O)[C@@H](N)CCCNC(=N)N)C(=O)NCCC(N)=O [Den(RW)4D] (H-RWK([Trp-Arg])K(Lys(α,ε-(ArgTrp)2))[βAla]-NH2) | 105 |
